Results of unrelated studies side by side (data: NIAID ChemDB).

Common to all: toxicity to cultured cells; cell line: VERO; measure: CC50

An empty or dashed field is not shown. CCn is the concentration with n% toxicity to the cells. Neighbouring rows are from separate reports. Two numbers with a dash give a range or band.

SMILES | method | value
O=C(NCc1ccccc1)c1c(-c2ccccc2)[n+](=O)c2ccc(F)cc2n1[O-] | ATP / luminescence | 17.86 µg/mL
COc1ccc(/C=N/Nc2cc(C)nc3ccc(C4CCCCC4)cc23)c2ccccc12 | - | 13.1 µg/mL
Cc1c(C(=O)NCc2ccc(Br)cc2)[n+](=O)c2cc(Cl)c(Cl)cc2n1[O-] | ATP / luminescence | >40 µg/mL
COC(=O)c1ccc2[nH]c3ccccc3c2c1 | - | >102 µg/mL
O=c1[nH]c(=O)n([C@H]2C[C@H](O)[C@@H](CO)O2)cc1C#Cc1ccc2c3cccc4cccc(c5cccc1c52)c43 | MTT | >20 µM
O=C(Nc1ccccc1)c1c(-c2ccccc2)[n+](=O)c2ccc(Cl)cc2n1[O-] | ATP / luminescence | 8.97 µg/mL
COc1ccc(/C=N/Nc2cc(C)nc3cc(Cl)ccc23)c2ccccc12 | - | 3.4 µg/mL
C/C1=C\C=C\C2(C)C=C(CO)C(C)CC23OC([O-])C(C3=O)C(O)/C=C/C2(C)C=C(C=O)C(C)CC23OC([O-])C(C3=O)C(O)/C(C)=C/C=C/C2C=C(CO)C(C)CC23OC([O-])C(C3=O)C(O)/C=C/C2(C)C=C(C=O)C(C)CC23OC([O-])C(C3=O)C1O | - | >100 µg/mL
FC(F)(F)c1cc(NCc2cccnc2)c2cccc(C(F)(F)F)c2n1 | - | >128 µM
CC(C)(C)C(=O)OCn1c(=O)c(C#Cc2ccc3c4cccc5cccc(c6cccc2c63)c54)cn(CC(=O)NCCCCO)c1=O | MTT | 2–6 µM
COc1ccccc1-c1cc(C(F)(F)F)nc2c(C(F)(F)F)cccc12 | - | 95 µM
CCCCOc1ccc2nccc(NN)c2c1 | - | 7.77 µg/mL
O=[N+]([O-])c1ccc(OCc2nn3c(-c4ccc(Cl)cc4)nnc3s2)cc1 | resazurin | 27.27 µM
CN(C)c1cc(C(F)(F)F)nc2c(C(F)(F)F)cccc12 | - | >128 µM
Oc1c(N=NC(=S)Nc2ccc(F)cc2)c2cc(OC(F)(F)F)ccc2n1CN1CCOCC1 | MTT | 2.396 µg/mL
O=[N+]([O-])c1ccc(OCc2nn3c(Cc4ccc5ccccc5c4)nnc3s2)cc1 | resazurin | 79.26 µM
O=c1[nH]c(=O)n([C@@H]2O[C@H](CO)[C@@H](O)[C@@H]2F)cc1CO | - | 297 µM
Cc1ccc2[nH]c(O)c(N=NC(=S)Nc3ccc(F)cc3)c2c1 | MTT | <0.195 µg/mL
C/C(=C\CC/C(C)=C/Cc1cc(O)cc(C)c1O)CC/C=C(\C)CC[C@@H](C)C(C)(C)O | - | 8.9 µM
Nc1ccn([C@H]2O[C@@H](CO)[C@H](O)[C@H]2F)c(=O)n1 | - | 15.1 µM
Cc1c(C(=O)NCc2ccc(C(F)(F)F)cc2)[n+](=O)c2cc(Cl)c(Cl)cc2n1[O-] | ATP / luminescence | >40 µg/mL
COc1ccc2[nH]c3cc(O)c(C=O)cc3c2c1 | - | >102 µg/mL
O=c1[nH]c(=O)n([C@H]2C[C@H](O)[C@@H](CO)O2)cc1-n1cc(-c2ccccc2)nn1 | MTT | >20 µM
C/C1=C\C=C\C2(C)C=C(CO[C@H]3O[C@H](CO)[C@H](O)[C@H](O)[C@H]3O)C(C)CC23OC([O-])C(C3=O)C(O)/C=C/C2(C)C=C(C=O)C(C)CC23OC([O-])C(C3=O)C(O)/C(C)=C/C=C/C2C=C(CO[C@H]3O[C@H](CO)[C@H](O)[C@H](O)[C@H]3O)C(C)CC23OC([O-])C(C3=O)C(O)/C=C/C2(C)C=C(C=O)C(C)CC23OC([O-])C(C3=O)C1O | - | >100 µg/mL
Cc1c(C(=O)NCc2ccc(C(F)(F)F)cc2)[n+](=O)c2cc(F)ccc2n1[O-] | ATP / luminescence | >40 µg/mL
CCCCNC(=O)Cn1cc(C#Cc2ccc3c4cccc5cccc(c6cccc2c63)c54)c(=O)n(COC(=O)C(C)(C)C)c1=O | MTT | >20 µM
O=c1[nH]c(=O)n([C@@H]2O[C@H](CO)[C@@H](O)[C@@H]2F)cc1I | - | 10.3 µM
C/C1=C\C=C\C2(C)C=C(CO)C(C)CC23OC([O-])C(C3=O)C(O)/C=C/C2(C)C=C(CO)C(C)CC23OC([O-])C(C3=O)C(O)/C(C)=C/C=C/C2C=C(CO)C(C)CC23OC([O-])C(C3=O)C(O)/C=C/C2(C)C=C(C=O)C(C)CC23OC([O-])C(C3=O)C1O | - | >100 µg/mL
Cc1ccc2[nH]c3ccccc3c2c1 | - | >102 µg/mL
O=c1[nH]c(=O)n([C@H]2C[C@H](O)[C@@H](CO)O2)cc1-n1cc(-c2ccc3c4cccc5cccc(c6cccc2c63)c54)nn1 | MTT | >20 µM
Oc1[nH]c2ccc(OC(F)(F)F)cc2c1N=NC(=S)Nc1ccc(Cl)cc1 | MTT | 6.391 µg/mL
O=C(O)CN1CCCC[C@H]1[C@@H](O)c1cc(C(F)(F)F)nc2c(C(F)(F)F)cccc12 | - | >128 µM
O=c1[nH]c(=O)n([C@H]2C[C@H](O)[C@@H](CO)O2)cc1-n1cc(-c2cc3cccc4c5cccc6cccc(c(c2)c34)c65)nn1 | MTT | >20 µM
C[C@@]1(O)[C@H](O)[C@@H](COP(=O)(O)OP(=O)(O)OP(=O)(O)O)O[C@H]1n1ccc2c(N)ncnc21 | - | >320 µM
Cc1cc(NN)c2ccc(Cl)cc2n1 | - | 76.97 µg/mL
O/N=C\c1cc(C(F)(F)F)nc2c(C(F)(F)F)cccc12 | - | >128 µM
Brc1ccc(OCc2nn3c(-c4ccc(Br)cc4)nnc3s2)cc1 | resazurin | 124 µM
Cc1c(C(=O)NCc2ccc(C(F)(F)F)cc2)[n+](=O)c2cc(C(F)(F)F)ccc2n1[O-] | ATP / luminescence | >40 µg/mL
COc1ccc(-c2cc(C(F)(F)F)nc3c(C(F)(F)F)cccc23)cc1 | - | 45 µM
Cc1cc(Cl)ccc1OCc1nn2c(-c3ccc(Br)cc3)nnc2s1 | resazurin | 32.52 µM

For reference, 5 entries again:

SMILES,method,value
C/C(=C\CC/C(C)=C/Cc1cc(O)cc(C)c1O)CC/C=C(\C)CC[C@@H](C)C(C)(C)O,-,8.9 µM
Oc1c(N=NC(=S)Nc2ccc(F)cc2)c2cc(OC(F)(F)F)ccc2n1CN1CCOCC1,MTT,2.396 µg/mL
Cc1c(C(=O)NCc2ccc(Br)cc2)[n+](=O)c2cc(Cl)c(Cl)cc2n1[O-],ATP / luminescence,>40 µg/mL
COc1ccccc1-c1cc(C(F)(F)F)nc2c(C(F)(F)F)cccc12,-,95 µM
O=c1[nH]c(=O)n([C@H]2C[C@H](O)[C@@H](CO)O2)cc1-n1cc(-c2ccc3c4cccc5cccc(c6cccc2c63)c54)nn1,MTT,>20 µM